Test in all cases: SPR
For assay [1], the target named is T1, SARS-CoV-2 Omicron BA.2 RBD (residues 319-541) (SARS-CoV-2, UniProt P0DTC2 319-541).
Assay [2] deals with SARS-CoV-2 Omicron BA.1 RBD (residues 319-541) (SARS-CoV-2, UniProt P0DTC2 319-541).
Assay [3] has as its target T1, SARS-CoV-2 Omicron BA.2 RBD (residues …). This is another data set of the same source.
The target in assay [4] is SARS-CoV-2 Omicron BA.4/5 RBD (residues 319-541) (SARS-CoV-2, UniProt P0DTC2 319-541).

Several values for one entry are separate records, joined by “and”; a condition that tells them apart may be missing. Equal entries are not always repeated. Where two headings read alike, the source gives them in different places.

This is an account of results in article PMC10362042 (Nature Communications, 2023).

B1: Mouse ACE2 (residues 1-615) (receptor)
chain: QSLTEENAKTFLNNFNQEAEDLSYQSSLASWNYNTNITEENAQKMSEAAAKWSAFYEEQSKTAQSFSLQEIQTPIIKRQLQALQQSGSSALSADKNKQLNTILNTMSTIYSTGKVCNPKNPQECLLLEPGLDEIMATSTDYNSRLWAWEGWRAEVGKQLRPLYEEYVVLKNEMARANNYNDYGDYWRGDYEAEGADGYNYNRNQLIEDVERTFAEIKPLYEHLHAYVRRKLMDTYPSYISPTGCLPAHLLGDMWGRFWTNLYPLTVPFAQKPNIDVTDAMMNQGWDAERIFQEAEKFFVSVGLPHMTQGFWANSMLTEPADGRKVVCHPTAWDLGHGDFRIKMCTKVTMDNFLTAHHEMGHIQYDMAYARQPFLLRNGANEGFHEAVGEIMSLSAATPKHLKSIGLLPSDFQEDSETEINFLLKQALTIVGTLPFTYMLEKWRWMVFRGEIPKEQWMKKWWEMKREIVGVVEPLPHDETYCDPASLFHVSNDYSFIRYYTRTIYQFQFQEALCQAAKYNGSLHKCDISNSTEAGQKLLKMLSLGNSEPWTKALENVVGARNMDVKPLLNYFQPLFDWLKEQNRNSFVGWNTEWSPYAD
In the case of B1, in assay [1], the dissociation constant Kd was 0.0095 µM and 0.0171 µM and 0.0132 µM and 0.0133 µM; the koff was 0.045 s⁻¹ and 0.055 s⁻¹ and 0.044 s⁻¹; the association rate constant (kon) is 2.5e+06 M⁻¹ s⁻¹ and 2.2e+06 M⁻¹ s⁻¹ and 2.4e+06 M⁻¹ s⁻¹.

B2: Rat ACE2 (residues 1-615) (receptor)
chain: QSLIEEKAESFLNKFNQEAEDLSYQSSLASWNYNTNITEENAQKMNEAAAKWSAFYEEQSKIAQNFSLQEIQNATIKRQLKALQQSGSSALSPDKNKQLNTILNTMSTIYSTGKVCNSMNPQECFLLEPGLDEIMATSTDYNRRLWAWEGWRAEVGKQLRPLYEEYVVLKNEMARANNYEDYGDYWRGDYEAEGVEGYNYNRNQLIEDVENTFKEIKPLYEQLHAYVRTKLMEVYPSYISPTGCLPAHLLGDMWGRFWTNLYPLTTPFLQKPNIDVTDAMVNQSWDAERIFKEAEKFFVSVGLPQMTPGFWTNSMLTEPGDDRKVVCHPTAWDLGHGDFRIKMCTKVTMDNFLTAHHEMGHIQYDMAYAKQPFLLRNGANEGFHEAVGEIMSLSAATPKHLKSIGLLPSNFQEDNETEINFLLKQALTIVGTLPFTYMLEKWRWMVFQDKIPREQWTKKWWEMKREIVGVVEPLPHDETYCDPASLFHVSNDYSFIRYYTRTIYQFQFQEALCQAAKHDGPLHKCDISNSTEAGQKLLNMLSLGNSGPWTLALENVVGSRNMDVKPLLNYFQPLFVWLKEQNRNSTVGWSTDWSPYAD
Turning to B2, in assay [2], the Kd was 3.46 µM and 3.37 µM and 3.42 µM and 3.41 µM; the koff worked out at 0.11 s⁻¹; the kon is 30000 M⁻¹ s⁻¹ and 31000 M⁻¹ s⁻¹ and 32000 M⁻¹ s⁻¹. Also, in assay [3], the Kd was 1.89 µM and 2.05 µM and 2.17 µM and 2.04 µM; the koff was 0.0099 s⁻¹ and 0.0081 s⁻¹; the kon is 5700 M⁻¹ s⁻¹ and 6500 M⁻¹ s⁻¹ and 5500 M⁻¹ s⁻¹. Besides, in assay [4], the Kd was 1.06 µM and 1.01 µM and 1 µM and 1.02 µM; the dissociation rate constant (koff) is 0.021 s⁻¹ and 0.028 s⁻¹ and 0.032 s⁻¹; the kon was 21000 M⁻¹ s⁻¹ and 20000 M⁻¹ s⁻¹ and 39000 M⁻¹ s⁻¹.
